The values that follow are results of earlier work, collected in patent US20060106070A1, “Novel pyridine-based metal chelators as antiviral agents” (Bioflexis, LLC, priority 2004, published 2006).

The EC50 is the midpoint of the concentration-response curve. What is called IC50 is the concentration that gives 50% inhibition.

Data set [1] deals with T1, HIV-1 integrase (Human immunodeficiency virus type 1 group M subtype B, UniProt P12497). The following applies: result in words.
A further data set deals with HIV. Conditions: ex-vivo viral inhibition assay.
The target in data set [2] is HIV-1 integrase (Human immunodeficiency virus type 1 group M subtype B, UniProt P04585). Conditions: in vitro enzyme inhibition assay.
Data set [3] has as its target T1, HIV-1 integrase. The following applies: result in words. This is another data set of the same source.

`O=C(O)C(=O)CC(=O)c1cc2cc(Cl)ccc2[nH]1`: the “inhibition of strand transfer reaction” value on HIV-1 integrase [1] is “inhibit both reactions”. In the data set with HIV, the EC50 was 700 nM. Besides, the IC50 on HIV-1 integrase [2] is 20 nM. For the same compound, the “inhibition of 3′ processing” value at HIV-1 integrase [3] was “inhibit both reactions”.
